Pooled drug test results. Numbers come from NIAID ChemDB, via PubChem.

An empty or dashed field is not shown. Rows are shuffled and stem from different studies. a–b is a range or a potency band. CCn is the concentration with n% toxicity to the cells. ICn is the concentration giving n% inhibition. Percent inhibition refers to the dose given; in toxicity tests it is the harm to the cells. ECn: concentration that inhibits the pathogen or its effect by n%. MIC50, MIC90 and the like: level of inhibition, or share of isolates inhibited.

structure | agent | kind | strain or isolate | read-out | protein | cells | tested at | method | result
NC(=O)c1ccc(-c2cncc(N3CCN(c4ccccn4)CC3)n2)cc1 | Cytomegalovirus | target |  | IC50 | UL97 kinase |  |  |  | <1 µM
O=C1N[C@H]2CCCCC2Nc2c1c(=O)n(O)c1ncccc21 |  | toxicity |  | CC50 |  | HeLa |  |  | <100 µM
Nc1c(S(=O)(=O)O)cc2cc(S(=O)(=O)O)cc(O)c2c1O | Herpes simplex virus | culture |  | inhibition |  | Human amnion AV3 cells | 10 µg/mL | cytopathic effect | 0%
O=C(NCCCc1ccc2c(n1)NCCC2)Nc1cccc(F)c1 |  | toxicity |  | CC50 |  | PBMC |  |  | 50 µM
O=C(Nc1ccc(S(=O)(=O)[O-])c2cccc(S(=O)(=O)[O-])c12)c1ccccc1 | Rhinovirus | culture |  | inhibition |  | Human amnion AV3 cells | 5 µg/mL | cytopathic effect | 0%
Fc1ccc(N2CCCCC2)c(NC(=S)c2ccncc2)c1 |  | host protein |  | inhibition | FGFR4 |  | 10 µM | kinase activity | -15%
O=S(=O)(O)c1ccc(N=Nc2c(O)ccc3cc(S(=O)(=O)O)ccc23)cc1 | Adenovirus | culture | TYPE 3 | inhibition |  | Human embryonic lung cells | 5 µg/mL | cytopathic effect | 0%
COc1ccc(N2CCN(c3cncc(-c4ccc(C(C)(C)C)cc4)n3)CC2)cc1OC | Cytomegalovirus | target |  | IC50 | UL97 kinase |  |  |  | <100 µM
O=C(NCCc1ccc2c(n1)NCCC2)Nc1cccc2c1CCN2 |  | toxicity |  | CC50 |  | PBMC |  |  | 7.5 µM
Cc1cccc(-c2cncc(N3CCN(c4ccccc4)CC3)n2)c1 | Cytomegalovirus | target |  | IC50 | UL97 kinase |  |  |  | <100 µM
Nc1ccc2cc([N+](=O)[O-])cc(S(=O)(=O)[O-])c2c1 | Rhinovirus | culture |  | inhibition |  | Human amnion AV3 cells | 50 µg/mL | cytopathic effect | 0%
Cc1ccc(-c2cncc(N3CCN(c4ccccn4)CC3)n2)cc1C | Cytomegalovirus | target |  | inhibition | UL97 kinase |  | 1 µM |  | <50%
CCCn1ccc2c(NC(=O)NCCc3ccc4c(n3)NCCC4)cccc21 |  | toxicity |  | CC50 |  | PBMC |  |  | 0.53 µM
Cc1cc(-c2ccc(N=Nc3c(N)c(S(=O)(=O)O)cc4cc(S(=O)(=O)O)ccc34)c(C)c2)ccc1N=Nc1c(N)ccc2cc(S(=O)(=O)O)ccc12 | Herpes simplex virus | culture |  | inhibition |  | Human amnion AV3 cells | 10 µg/mL | cytopathic effect | 20%
COc1cc(C[C@H](NC(=O)c2cc3nc(-c4ccco4)c(C4CCCCC4)c(=O)n3[nH]2)C(=O)O)ccc1O | Hepatitis C virus | target |  | IC50 | RNA-dependent RNA polymerase |  |  |  | <1 µM
O=C(NCCc1ccc2c(n1)NCCC2)Nc1ccccc1 |  | toxicity |  | CC50 |  | PBMC |  |  | 50 µM
N#Cc1ccc2c(c1)CN(c1cc(=O)n(O)c3ncccc13)CC2 |  | toxicity |  | CC50 |  | HeLa |  |  | <100 µM
COc1cccc(N2CCN(c3cncc(-c4ccccc4)n3)CC2)c1 | Cytomegalovirus | target |  | IC50 | UL97 kinase |  |  |  | <100 µM
O=C(O)c1cc2nc(-c3ccc(Cl)cc3)cc(-c3cc(F)cc(F)c3)n2n1 | Hepatitis C virus | target |  | IC50 | RNA-dependent RNA polymerase |  |  |  | 1–10 µM
CC(C)Oc1cccc(CCNC(=O)NCc2ccc(Cl)c(Cl)c2)n1 |  | toxicity |  | CC50 |  | PBMC |  |  | 6.9 µM
COc1cc(CC(NC(=O)c2cnn3c(C4CCCCC4)c(-c4ccc(F)cc4)cnc23)C(=O)O)ccc1O | Hepatitis C virus | target |  | IC50 | RNA-dependent RNA polymerase |  |  |  | <1 µM
CN(C)CC[C@H](Nc1cc(=O)n(O)c2ncccc12)c1ccccc1 |  | toxicity |  | CC50 |  | HeLa |  |  | 0.24 µM
CCOC(=O)/C=C/[C@H](C[C@@H]1CCNC1=O)NC(=O)[C@@H](CC(=O)[C@@H](NC(=O)c1cc(C)on1)C(C)C)Cc1ccc(F)cc1 | Rhinovirus | culture | Isolate 41 | EC50 |  | OHIO HELA-I |  | cytopathic effect / visual reading | 0.02 µg/mL
CCC(CC)O[C@@H]1C=C(C(=O)O)C[C@H](N)[C@H]1NC(C)=O | Influenza A virus | culture | Influenza A/Virginia/2/88R (H3N2) | EC50 |  | MDCK |  | visual reading | 0.01 µM
O=C(NCCc1ccc2c(n1)NCCC2)Nc1ccccc1F |  | toxicity |  | CC50 |  | PBMC |  |  | 50 µM
NS(=O)(=O)O | Herpes simplex virus | culture |  | inhibition |  | Human amnion AV3 cells | 50 µg/mL | cytopathic effect | 0%
CC(C)c1ccccc1NC(=O)NCC1CCc2ccccc2N1 |  | toxicity |  | CC50 |  | PBMC |  |  | 50 µM
O=S(=O)([O-])c1cc(S(=O)(=O)[O-])c2cc(NS(=O)(=O)c3ccccc3)ccc2c1 | Adenovirus | culture | TYPE 3 | inhibition |  | Human amnion AV3 cells | 50 µg/mL | cytopathic effect | 0%
CCO/N=C/c1ccc(OCCC2CCN(c3ccc(Cl)nn3)CC2)cc1 | Rhinovirus | culture | 47-CV21 (ICAM-1 receptor group 21) | EC50 |  | KB |  | neutral red | 0.258 µM
O=C(O)c1cc2nc(-c3ccc(OCc4ccccc4)cc3)c(CC3CCC3)c(=O)n2[nH]1 | Hepatitis C virus | target |  | IC50 | RNA-dependent RNA polymerase |  |  |  | 1–10 µM
C=CCc1ccc(O)c(OC)c1 | Candida albicans | culture | 3087 | MIC90 |  |  |  | turbidity | 500 µg/mL
COc1ccc(-c2cc(C(=O)O)nc3cc(-c4ccccc4)nn23)cc1 | Hepatitis C virus | target |  | IC50 | RNA-dependent RNA polymerase |  |  |  | >10 µM
O=c1cc(N2CCC(Cc3ccccc3)CC2)c2cccnc2n1O |  | toxicity |  | CC50 |  | HeLa |  |  | <100 µM
Cn1nnnc1-c1cnn2c(C3CCCCC3)c(-c3ccc(OCc4ccccc4)cc3)cnc12 | Hepatitis C virus | target |  | IC50 | RNA-dependent RNA polymerase |  |  |  | >10 µM
O=C(NCCc1ccc2c(n1)NCCC2)Nc1ccc(SC(F)(F)F)cc1 |  | toxicity |  | CC50 |  | PBMC |  |  | 23 µM
COc1ccc(-c2cc(-c3ccc(F)cc3)nc3cc(C(=O)O)nn23)cc1 | Hepatitis C virus | target |  | IC50 | RNA-dependent RNA polymerase |  |  |  | >10 µM
O=C(O)c1cc(S(=O)(=O)[O-])ccc1O | Adenovirus | culture | TYPE 3 | inhibition |  | Human amnion AV3 cells | 10 µg/mL | cytopathic effect | 10%
COc1ccc(-c2cc(-c3ccc(Oc4ccccc4)cc3)nc3cc(C(=O)O)nn23)cc1 | Hepatitis C virus | target |  | IC50 | RNA-dependent RNA polymerase |  |  |  | 1–10 µM
CC(=O)c1ccc(N2CCN(c3cncc(-c4ccc(F)c(Cl)c4)n3)CC2)cc1 | Cytomegalovirus | target |  | inhibition | UL97 kinase |  | 10 µM |  | >15%
CCOC(=O)C(Cc1ccccc1)NC(=O)NCCc1ccc2c(n1)NCCC2 |  | toxicity |  | CC50 |  | PBMC |  |  | 14 µM
CS(=O)(=O)c1cccc(-c2ccc(-c3cnc4c(-c5nn[nH]n5)cnn4c3C3CCCCC3)cc2)c1 | Hepatitis C virus | target |  | IC50 | RNA-dependent RNA polymerase |  |  |  | 1–10 µM

2 of the rows above, restated:

structure	agent	kind	strain or isolate	read-out	protein	cells	tested at	method	result
CC(C)c1ccccc1NC(=O)NCC1CCc2ccccc2N1		toxicity		CC50		PBMC			50 µM
O=S(=O)([O-])c1cc(S(=O)(=O)[O-])c2cc(NS(=O)(=O)c3ccccc3)ccc2c1	Adenovirus	culture	TYPE 3	inhibition		Human amnion AV3 cells	50 µg/mL	cytopathic effect	0%